Measured values from several laboratories, pooled; numbers as filed in NIAID ChemDB.

Shared fields: whole-cell or culture tests; agent: Mycobacterium avium; endpoint: inhibition

Blank or dashed fields: not listed here. Rows are shuffled and stem from different studies. Inhibition is in % at the dose shown (toxicity tests: loss of growth or viability).

SMILES	strain	read by	dose	value
CO[C@H]1/C=C/O[C@@]2(C)Oc3c(C)c(O)c4c(O)c(c5c(c4c3C2O)=NC2(CCN(CC(C)C)CC2)N=5)NC(=O)/C(C)=C\C=C\[C@H](C)[C@H](O)[C@@H](C)[C@@H](O)[C@@H](C)[C@H](OC(C)=O)[C@@H]1C	1581	colony count	0.4 µg/mL	>99%
O=C1NC(=Nc2ccc(Cl)cc2Cl)N/C1=C\c1ccc(Cl)cc1Cl	-	-	12.5 µg/mL	11%
Cc1cn([C@@H]2O[C@H](CO)[C@@H](O)[C@@H]2O)c(=O)[nH]c1=O	ATCC 25291	-	50 µg/mL	0%
[N-]=[N+]=N[C@H]1C[C@H](n2cc(Br)c(=O)[nH]c2=O)O[C@@H]1CO	ATCC 25291	resazurin	100 µg/mL	0%
CCc1nc2cc(F)ccn2c1C(=O)NCc1ccc(N2CCN(c3ccc(OCC(F)(F)F)cc3)[C@@H](C)C2)c(F)c1.Cl	-	fluorescence	0.0046 µM	85%
CC(=O)OC[C@H]1O[C@@H](n2cc(/C=C/Br)c(=O)[nH]c2=O)C[C@@H]1OC(C)=O	ATCC 25291	-	50 µg/mL	0%
CO[C@H]1/C=C/O[C@@]2(C)Oc3c(C)c(O)c4c(O)c(c5c(c4c3C2=O)NC2(CCN(CC(C)C)CC2)N=5)=NC(=O)/C(C)=C\C=C\[C@H](C)[C@H](O)[C@@H](C)[C@@H](O)[C@@H](C)[C@H](OC(C)=O)[C@@H]1C	1581	colony count	0.4 µg/mL	>99%
CCOC(=O)/C(N=Nc1ccc(C(=O)N/N=C/c2ccc([N+](=O)[O-])o2)cc1)=C(\C)O	-	-	12.5 µg/mL	16%
CO[C@H]1/C=C/O[C@@]2(C)Oc3c(C)c(O)c4c(O)c(c5c(c4c3C2=O)NC2(CC[N+]([O-])(CC(C)C)CC2)N=5)=NC(=O)/C(C)=C\C=C\[C@H](C)[C@H](O)[C@@H](C)[C@@H](O)[C@@H](C)[C@H](OC(C)=O)[C@@H]1C	1581	colony count	0.4 µg/mL	0%
Cc1nn2cc(F)ccc2c1C(=O)NCc1ccc(N2CCN(c3ccc(OC(F)(F)F)cc3)[C@@H](C)C2)c(F)c1.Cl	-	fluorescence	0.059 µM	85%
CO[C@H]1/C=C/O[C@@]2(C)Oc3c(C)c(O)c4c(c3C2=O)C2=NC3(CCN(CC(C)C)CC3)N(C(C)=O)C2=C(NC(=O)/C(C)=C\C=C\[C@H](C)[C@H](O)[C@@H](C)[C@@H](O)[C@@H](C)[C@H](OC(C)=O)[C@@H]1C)C4=O	1581	colony count	0.4 µg/mL	>99%
CCc1cn([C@H]2C[C@H](O)[C@@H](CO)O2)c(=O)[nH]c1=O	ATCC 25291	resazurin	100 µg/mL	0%
OO	485	-	0.0005 µM	48%
Cc1nc2ccc(Cl)cn2c1C(=O)NCc1cc(F)c2c(c1)CCN(c1ccc(OC(F)(F)F)cc1)C2.Cl	-	fluorescence	0.13 µM	85%
N#C/C(=C\c1ccc(Br)cc1)n1nnc2ccccc21	-	-	12.5 µg/mL	30%
CC(=O)OC[C@H]1O[C@@H](n2cc(/C=C/I)c(=O)[nH]c2=O)C[C@@H]1OC(C)=O	ATCC 25291	-	50 µg/mL	0%
CCc1cn([C@H]2C[C@H](I)[C@@H](CO)O2)c(=O)[nH]c1=O	ATCC 25291	resazurin	100 µg/mL	0%
Cc1cn([C@H]2CC[C@@H](CO)O2)c(=O)[nH]c1=O	ATCC 25291	-	50 µg/mL	0%
CC(=O)N1N=C(c2ccncc2)OC1c1ccc(F)c(F)c1	-	-	12.5 µg/mL	98%
O=c1ccn([C@H]2C[C@H](F)[C@@H](CO)O2)c(=O)[nH]1	ATCC 25291	-	50 µg/mL	0%
Cc1nc2ccc(F)cn2c1C(=O)NCc1ccc(N2CCN(c3ccc(OC(F)(F)F)cc3)[C@@H](C)C2)c(F)c1	-	fluorescence	0.015 µM	85%
O=c1[nH]c(=O)n([C@H]2C[C@H](O)[C@@H](CO)O2)cc1O	ATCC 25291	-	50 µg/mL	0%
Cc1ccn2c(C(=O)NCc3ccc(C4CCN(c5ccc(OC(F)(F)F)cn5)CC4)c(F)c3)c(C)nc2c1	-	fluorescence	0.17 µM	85%
O=c1[nH]c(=O)n([C@H]2C[C@H](F)[C@@H](CO)O2)cc1F	ATCC 25291	-	50 µg/mL	0%
Cc1ccn2c(C(=O)NCc3ccc(O[C@H]4CCN(c5ccc(OC(F)(F)F)cc5)C4)c(F)c3)c(C)nc2c1	-	fluorescence	0.5 µM	85%
CCc1cn([C@H]2C[C@H](O)[C@@H](CO)O2)c(=O)[nH]c1=O	ATCC 25291	-	50 µg/mL	0%
O=C1NC(Nc2ccc(Cl)cc2)=N/C1=C\c1ccc(Cl)cc1Cl	-	-	12.5 µg/mL	66%

Repeating the final 2 entries:

SMILES | strain | read by | dose | value
CCc1cn([C@H]2C[C@H](O)[C@@H](CO)O2)c(=O)[nH]c1=O | ATCC 25291 | - | 50 µg/mL | 0%
O=C1NC(Nc2ccc(Cl)cc2)=N/C1=C\c1ccc(Cl)cc1Cl | - | - | 12.5 µg/mL | 66%